Kd data for one substance are collected here from paper PMC8720485.

pKd: −log10 of the molar value.

The target in this assay is SARS-CoV-2 receptor binding domain (RBD), wild type, monomeric (SARS-CoV-2) (UniProt P0DTC2). The assay is described as follows: BLI. (BLI is a label-free optical method that tracks binding on a fibre tip over time.)

Broadly, the pKd is −log10 of the Kd, conventionally taken in molar units. In the case of B38, the pKd is 5.68.
